Results of unrelated studies side by side (data: NIAID ChemDB).

All rows: target-level tests; agent: HIV-1; protein: Protease; endpoint: IC50

ICn: concentration for n% inhibition. Rows are shuffled and stem from different studies. An empty or dashed field is not shown.

SMILES,method,conditions,value
CCCCC1(CCc2cccc(NS(=O)(=O)c3ccc(C#N)cc3)c2)COC(=O)C(C(CC)c2cccc(NS(=O)(=O)c3ccc(C#N)cc3)c2)=C1O,,,0.122 µM
CC[C@H](C)[C@H](NC(=O)[C@@H]1CCCN1C(=O)[C@H](O)[C@H](CC1CCCCC1)NC(=O)[C@H](CC(N)=O)NC(=O)CCc1ccccc1)C(=O)N[C@H](C(N)=O)C(C)C,substrate cleavage,pH 5.75,>10 µM
CC(C)(C)NC(=O)[C@@H]1C[C@@H]2CCCC[C@@H]2CN1C[C@@H](O)C(NC(=O)[C@H](CC(N)=O)NC(=O)c1ccc2ccccc2n1)c1ccc(-c2cccs2)cc1,,,1.5 µM
CCCCC1(CCc2cccc(NS(=O)(=O)c3ccc(C#N)cn3)c2)COC(=O)C(C(CC)c2cccc(NS(=O)(=O)c3ccc(C#N)cn3)c2)=C1O,,,0.052 µM
CN(C)S(=O)(=O)N(Cc1ccc(F)cc1)C[C@@H](O)[C@H](Cc1ccccc1)NC(=O)OCc1ccccc1,,,~10 µM
CC[C@H](C)[C@H](NC(=O)[C@H](CCC(N)=O)NC(=O)[C@@H]1CCCN1C[C@H](Cc1ccccc1)NC(=O)[C@H](CC(N)=O)NC(=O)[C@H](Cc1ccccc1)NC(C)=O)C(N)=O,substrate cleavage,pH 5.75,>10 µM
CCCN([C@H](CO)CCC[C@@H](NC(=O)[C@@H](NC(=O)OC)C(c1ccccc1)c1ccccc1)C(F)(F)F)S(=O)(=O)c1ccc(CO)cc1,HPLC,,0.00001 µM
CC(C)(C)NS(=O)(=O)N(Cc1ccccc1)C[C@@H](O)[C@H](Cc1ccccc1)NC(=O)OCc1ccccc1,,,~10 µM
O=C(N[C@@H](CCc1ccccc1)[C@@H](O)C[C@]1(Cc2ccccc2)NC=C([C@H]2c3ccccc3C[C@H]2O)C1=O)O[C@H]1CCOC1,,,0.002 µM
CCCCC1(CCc2cccc(NS(=O)(=O)c3ccccc3)c2)COC(=O)C(C(CC)c2cccc(NS(=O)(=O)c3ccccc3)c2)=C1O,,,0.113 µM
N=S(=O)(C[C@@H](Cc1ccccc1)C(=O)N[C@H]1c2ccccc2C[C@H]1O)C[C@H](Cc1ccccc1)C(=O)N[C@H]1c2ccccc2C[C@H]1O,,,0.0373 µM
CC[C@H](C)[C@H](NC(=O)[C@@H]1CCCN1C(=O)[C@@H](O)[C@H](Cc1ccccc1)NC(=O)[C@H](CC(N)=O)NC(=O)[C@H](Cc1ccccc1)NC(=O)[C@@H](N)CO)C(=O)N[C@H](C(N)=O)C(C)C,,,<5 µM
C[C@@H]1O[C@@H](O[C@H]2[C@H](O[C@H]3CC[C@@]4(C)[C@@H](CC[C@]5(C)[C@@H]4CC=C4[C@@H]6CC(C)(C)CC[C@]6(C(=O)O)CC[C@]45C)[C@]3(C)CO)OC[C@H](O)[C@@H]2O)[C@H](O)[C@H](O)[C@H]1O,absorbance,,5 µM
CC[C@@H](C)[C@H](NC(=O)[C@@H]1CCCN1C(=O)[C@@H](O)[C@H](Cc1ccccc1)NC(=O)[C@H](CCC(N)=O)NC(=O)CCc1ccccc1)C(=O)N[C@H](C(N)=O)C(C)C,,,<5 µM
CCCN([C@H](CO)CCCC(C)NC(=O)[C@@H](NC(=O)OC)C(c1ccccc1)c1ccccc1)S(=O)(=O)c1ccc(CO)cc1,HPLC,,0.000014 µM
O=C(N[C@@H](CCc1ccccc1)[C@@H](O)C[C@]1(Cc2ccccc2)NC=C([C@H]2c3ccccc3[C@H]3NC(=O)O[C@H]32)C1=O)O[C@H]1CCOC1,,,0.00044 µM
CC(C)CN(C[C@@H](O)[C@H](Cc1ccccc1)NC(=O)OCc1ccccc1)S(=O)(=O)N1CCN(C)CC1,,,>0.1 µM
CCCCC1(CCc2cccc(NS(=O)(=O)c3ccccn3)c2)COC(=O)C(C(CC)c2cccc(NS(=O)(=O)c3ccccn3)c2)=C1O,,,0.03 µM
CC(=O)Nc1ccc(S(=O)(=O)N(CC(C)C)C[C@@H](O)[C@H](Cc2ccccc2)NC(=O)[C@H](C)CS(C)(=O)=O)cc1,fluorescence,,0.022 µM
CC[C@H](C)[C@H](NC(=O)[C@@H]1CCCN1C(=O)[C@H](O)[C@H](CC1CCCCC1)NC(=O)[C@H](CC(N)=O)NC(=O)CCc1ccccc1)C(=O)N[C@H](C(N)=O)C(C)C,,,>5 µM
C=C(C)[C@@H]1CC[C@]2(C(=O)O)CC[C@]3(C)[C@H](CC[C@@H]4[C@@]5(C)CC[C@H](O)C(C)(C)[C@@H]5CC[C@]43C)[C@@H]12,absorbance,,2.5 µM
CC(C)[C@H](NC(=O)[C@@H]1CCCN1C(=O)[C@H](O)[C@H](Cc1ccccc1)NC(=O)OC(C)(C)C)C(=O)NCC1CCCCC1,,,~1000 µM
CC(C)CN(C[C@@H](O)[C@H](Cc1ccccc1)NC(=O)OCc1ccccc1)S(=O)(=O)N1CCCC1,,,>0.1 µM
CS(=O)(=O)C[C@H](NC(=O)COc1cccc2ccccc12)C(=O)N[C@@H](Cc1ccccc1)[C@H](O)C(=O)N1CSC[C@H]1C(=O)NCC(N)=O,,,>0.05 µM
N=S(=O)(C[C@H](Cc1ccccc1)C(=O)N[C@H]1c2ccccc2C[C@H]1O)C[C@H](Cc1ccccc1)C(=O)N[C@H]1c2ccccc2C[C@H]1O,,,0.1539 µM
NC(=O)C[C@H](NC(=O)[C@@H](N)Cc1ccccc1)C(=O)N[C@@H](Cc1ccccc1)[C@@H](O)C(=O)NCC1CCCCC1,,,~1000 µM
CC(=O)Nc1ccc(S(=O)(=O)N(CC(C)C)C[C@@H](O)[C@H](CCc2ccccc2)NC(=O)Cn2c(=O)oc3ccccc32)cc1,,,0.005 µM
CC[C@H](C)[C@H](NC(=O)[C@@H]1CCCN1C(=O)[C@H](O)[C@H](Cc1ccccc1)NC(=O)[C@H](CO)NC(=O)CCc1ccccc1)C(=O)N[C@H](C(N)=O)C(C)C,,,>5 µM
NC(=O)O[C@@H]1Cc2ccccc2[C@@H]1C1=CN[C@@](Cc2ccccc2)(C[C@H](O)[C@H](CCc2ccccc2)NC(=O)O[C@H]2CCOC2)C1=O,,,0.002 µM
C[C@H](CCC(=O)O)[C@H]1CC[C@H]2C3[C@@H](O)C[C@@H]4C[C@H](O)CC[C@]4(C)[C@H]3CC[C@]12C,absorbance,,70 µM
CC(C)CN(C[C@@H](O)[C@H](Cc1cc(F)cc(F)c1)NC(=O)O[C@H]1CO[C@H]2OC[C@H](NC(C)C)[C@H]21)S(=O)(=O)c1ccc2nc(NC3CC3)sc2c1,substrate cleavage / fluorescence,,0.0002 µM
CC(C)CN(C[C@@H](O)[C@H](Cc1ccccc1)NC(=O)OC1CO[C@H]2OC[C@H](O)[C@@H]12)S(=O)(=O)c1ccc(N)cc1,,,0.0025 µM

2 of the rows above, restated:

SMILES	method	conditions	value
CCCCC1(CCc2cccc(NS(=O)(=O)c3ccccc3)c2)COC(=O)C(C(CC)c2cccc(NS(=O)(=O)c3ccccc3)c2)=C1O			0.113 µM
CC[C@H](C)[C@H](NC(=O)[C@@H]1CCCN1C(=O)[C@H](O)[C@H](CC1CCCCC1)NC(=O)[C@H](CC(N)=O)NC(=O)CCc1ccccc1)C(=O)N[C@H](C(N)=O)C(C)C			>5 µM